Results of unrelated studies side by side (data: NIAID ChemDB).

Common to all: whole-cell or culture tests; organism: HIV-1; cells: PBMC; read-out: EC50

Neighbouring rows are from separate reports.

Cc1cn([C@H]2C[C@H](N=[N+]=[N-])[C@@H](CO)O2)c(=O)[nH]c1=O ; strain or isolate: JV1083 (subtype G) ; read by: RT activity ; result: 0.00067 µM
COC[C@@H](c1ccc(C(F)(F)F)cc1)N1CCN(C2(C)CCN(C(=O)c3c(C)ncnc3C)CC2)C[C@@H]1C ; strain or isolate: S ; mutations: M518V F519L ; result: 0.00013 µM
N=C1Sc2ccccc2C2=NCCCN12 ; strain or isolate: 98IN022 ; read by: ELISA ; result: 0.4 µM
Nc1ncnc2c1ncn2[C@@H]1C=C(CO)[C@@H](O)[C@H]1O ; strain or isolate: A012 PRE-AZT ; read by: p24 ; result: 0.0109 µM
CCCc1cc(=O)oc2c3c(c4c(c12)OC(C)(C)CC4)O[C@@H](C)[C@H](C)[C@@H]3O ; strain or isolate: CLADE F ; read by: RT activity ; result: 0.1 µM
COC(=O)[C@H](C)NP(=O)(OC[C@@H]1C=C[C@H](n2cc(C)c(=O)[nH]c2=O)O1)Oc1ccccc1Br ; strain or isolate: A17 ; mutations: RT-Y181C ; read by: p24 ; result: 0.042 µM
CCCCCCCCCCCCCCCCOCCCOP(=O)(O)OC[C@@H]1OC[C@H](n2cc(C)c(=O)[nH]c2=O)O1 ; strain or isolate: LAI ; mutations: RT-M184V ; read by: RT activity ; result: 2 µM
CC(C)OC(=O)[C@H](C)NP(=O)(OCC(F)(F)C(F)(F)C(F)(F)Cn1ccc(N)nc1=O)Oc1ccccc1 ; strain or isolate: LAI ; read by: RT activity ; result: >100 µM
Clc1cc(CN2CCCNCCNCCCNCC2)cc(Cl)n1 ; strain or isolate: X4 clinical isolate #17 ; read by: p24 ; result: 5.9 µM
Nc1nc(=O)n([C@H]2C=C[C@@H](CO)O2)cc1F ; strain or isolate: XM-T69SSS ; mutations: RT-T69SSS L210W T215Y ; read by: p24 ; result: <6.6 µM
CN(C)CCSc1cccc(-c2ccnc(SCCN(C)C)n2)c1 ; strain or isolate: LAV ; read by: RT activity ; result: 9.3 µM
COC(=O)[C@@H](NP(=O)(OC[C@@H]1OC[C@H](n2cc(C)c(=O)[nH]c2=O)O1)Oc1ccccc1)C(C)C ; strain or isolate: LAI ; mutations: RT-M184V ; read by: RT activity ; result: 9.6 µM
Cc1ccc(-c2ccc3c(c2)C=C(C(=O)Nc2ccc(C[N+](C)(C)C4CCOCC4)cc2)CCC3)cc1 ; strain or isolate: TB8 CLADE C ; read by: p24 ; result: <1 µM
CN(C)CCSc1nccc(-c2cccs2)n1 ; strain or isolate: LAV ; read by: RT activity ; result: 25.5 µM
CCCCCCCCCCCCCCCCCCOCCOP(=O)(O)CO[C@H](CO)Cn1cnc2c(N)nc(N)nc21 ; strain or isolate: NRTI-MDR ; mutations: M41L T69SS L74V M184V L210W ; read by: p24 / ELISA ; result: 0.008 µM
Cc1ccc(NC(=O)CN2CCN(Cc3nc(-c4ccc(F)cc4)no3)CC2)cc1 ; strain or isolate: 92BR030 ; read by: RT activity ; result: 7.5 µM
Cc1cnc(SCCN(C)C)nc1-c1ccc(-c2nc(SCCN(C)C)ncc2C)s1 ; strain or isolate: LAV ; read by: RT activity ; result: 2.5 µM
COC(=O)C(C)(C)NP(=O)(OC[C@@H]1OC[C@H](n2cc(C)c(=O)[nH]c2=O)O1)Oc1ccccc1 ; strain or isolate: LAI ; mutations: RT-M184V ; read by: RT activity ; result: 0.62 µM
C[C@H]1[C@H](O)[C@@H](C)/C=C/C=C/C=C/C=C/C=C/C=C/C=C/[C@H](O[C@@H]2O[C@H](C)[C@@H](O)[C@H](N)[C@@H]2O)C[C@@H]2O[C@](O)(C[C@@H](O)C[C@@H](O)CC[C@H](O)[C@@H](O)C[C@@H](O)CC(=O)O[C@H]1C)C[C@H](O)[C@H]2C(=O)O ; strain or isolate: 93BR029 CLADE F R5 (NSI) ; read by: p24 / RT activity ; result: 0.9 µM
Nc1nccc2c1ncn2[C@@H]1C=C(CO)[C@@H](O)[C@H]1O ; strain or isolate: 14A-4/87 PRE-AZT ; read by: p24 ; result: 0.0105 µM
CN1CCN(CCSc2nc(-c3ccc4ccccc4c3)c3ccccc3n2)CC1 ; strain or isolate: LAV ; read by: RT activity ; result: 2.6 µM
Nc1nc(=O)n([C@H]2C=C[C@@H](CO)O2)cc1F ; strain or isolate: BRU ; mutations: RT-M184V ; read by: RT activity ; result: <0.08 µM
Nc1nc(NC2CC2)c2ncn([C@H]3C=C[C@@H](CO)C3)c2n1 ; strain or isolate: WT ; read by: p24 ; result: <4 µM
Nc1nc(NC2CC2)c2ncn([C@H]3C=C[C@@H](CO)C3)c2n1 ; strain or isolate: XM-AZT-resistant ; mutations: RT-M41L D67N K70R T215Y K219Q ; read by: p24 ; result: <4.5 µM
COC(=O)[C@H](C)NP(=O)(OC[C@@H]1C=C[C@H](n2cc(C)c(=O)[nH]c2=O)O1)Oc1c(OC)cccc1OC ; strain or isolate: RTMDR ; mutations: RT M41L L74V T215Y V106N ; read by: p24 ; result: 1.104 µM
CN1CCN(CCSc2nccc(-c3ccc(-c4ccnc(SCCN5CCN(C)CC5)n4)s3)n2)CC1 ; strain or isolate: LAV ; read by: RT activity ; result: 17.5 µM
COC(=O)CNP(=O)(OC[C@@H]1OC[C@H](n2cc(C)c(=O)[nH]c2=O)O1)Oc1ccccc1 ; strain or isolate: LAI ; mutations: RT-M184V ; read by: RT activity ; result: 2.2 µM
COC(=O)[C@H](C)NP(=O)(OC[C@@H]1C=C[C@H](n2cc(C)c(=O)[nH]c2=O)O1)Oc1ccc(OC)cc1 ; strain or isolate: RTMDR ; mutations: RT M41L L74V T215Y V106N ; read by: p24 ; result: 1.014 µM
Nc1ncnc2c1ncn2CC(F)(F)C(F)(F)CO ; strain or isolate: LAI ; read by: RT activity ; result: >100 µM
Cc1cn([C@H]2CO[C@@H](CO[P@@]3(=O)OCC[C@@H](c4ccccc4)O3)O2)c(=O)[nH]c1=O ; strain or isolate: LAI ; mutations: RT-M184V ; read by: RT activity ; result: 0.48 µM
COP(=O)(c1cc(C)cc(CCC#N)c1)c1c(C(N)=O)[nH]c2ccc(Cl)cc12 ; strain or isolate: Clinical isolate ; mutations: K103N/Y181C ; result: 0.0088 µM
CCO[C@@H]1Cc2cc(C(F)(F)F)ccc2C1N1CCN(C2(C)CCN(C(=O)c3c(C)ncnc3C)CC2)C[C@@H]1C ; strain or isolate: Ru570 ; read by: p24 ; result: 0.002 µM
CC(C)CCC[C@@H](C)[C@H]1CCC2C3CCC4C[C@@H](O[C@@H]5O[C@H](COS(=O)(=O)[O-])[C@@H](O[C@H]6O[C@H](COS(=O)(=O)[O-])[C@@H](O[C@H]7O[C@H](COS(=O)(=O)[O-])[C@@H](O[C@H]8O[C@H](COS(=O)(=O)[O-])[C@@H](OS(=O)(=O)[O-])[C@H](OS(=O)(=O)[O-])[C@H]8OS(=O)(=O)[O-])[C@H](OS(=O)(=O)[O-])[C@H]7OS(=O)(=O)[O-])[C@H](OS(=O)(=O)[O-])[C@H]6OS(=O)(=O)[O-])[C@H](OS(=O)(=O)[O-])[C@H]5OS(=O)(=O)[O-])CC[C@]4(C)C3CC[C@@]21C ; strain or isolate: HI92-206 isolate (X4/R5) ; read by: p24 / ELISA / antigen ; result: 5 µg/mL
CCCCCCCCCCCCCCCCCCOCCOP(=O)(O)CO[C@H](CO)Cn1cnc2c(=O)[nH]c(N)nc21 ; strain or isolate: NRTI-MDR ; mutations: K65R ; read by: p24 / ELISA ; result: 0.022 µM
Nc1nc2c(ncn2CC(F)(F)C(F)(F)CO)c(=O)[nH]1 ; strain or isolate: LAI ; read by: RT activity ; result: >100 µM
CCCCCCCCCCCCCCCCCCOCCOP(=O)(O)CO[C@H](CO)Cn1ccc(N)nc1=O ; strain or isolate: NRTI-MDR ; mutations: M41L D67N K70R T215Y K219Q ; read by: p24 / ELISA ; result: 0.012 µM
CC(C)OC(=O)[C@H](C)NP(=O)(OCC(F)(F)C(F)(F)C(F)(F)Cn1cnc2c(=O)[nH]c(N)nc21)Oc1ccccc1 ; strain or isolate: LAI ; read by: RT activity ; result: >100 µM
C=CCN(C(=O)OCc1ccc([N+](=O)[O-])cc1)C1CCN(C[C@H]2CN(C(=O)C3CCCC3)C[C@]2(O)c2ccccc2)CC1 ; strain or isolate: TK1135 R5 ; read by: p24 ; result: 0.0084 µM
Nc1ncnc2c1ncn2CC(F)(F)C(F)(F)C(F)(F)CO ; strain or isolate: LAI ; read by: RT activity ; result: >100 µM
COc1cc2c(OC3OC(C)C(OC4OC(CO)C(O)C(O)C4O)C(O)C3OC(C)=O)c3c(c(-c4ccc5c(c4)OCO5)c2cc1OC)C(=O)OC3 ; strain or isolate: 1617-1 ; read by: p24 / ELISA ; result: 0.185 µM
Cc1ccnc2c1NC(=O)c1cccnc1N2C1CC1 ; strain or isolate: LAV ; read by: p24 / ELISA ; result: 0.532 µM
CN(C)CCNc1nc(-c2cccs2)cc(-c2cc3ccccc3s2)n1 ; strain or isolate: LAV ; read by: RT activity ; result: 5.8 µM
N=C1Sc2ccccc2C2=NCCCN12 ; strain or isolate: 92RW016 ; read by: β-galactosidase ; result: 0.22 µM
Cc1c(-c2ccc(SCCN(C)C)cc2)ncnc1-c1ccc(SCCN(C)C)cc1 ; strain or isolate: LAV ; read by: RT activity ; result: 6 µM
O=C(CNC(=O)COc1ccccc1)NCc1ccc(C(=O)N2CCCCC2)cc1 ; strain or isolate: 92BR030 ; read by: RT activity ; result: 20.3 µM

For reference, 5 entries again:

structure,strain or isolate,mutations,read by,result
Nc1ncnc2c1ncn2[C@@H]1C=C(CO)[C@@H](O)[C@H]1O,A012 PRE-AZT,,p24,0.0109 µM
Cc1ccnc2c1NC(=O)c1cccnc1N2C1CC1,LAV,,p24 / ELISA,0.532 µM
COC(=O)[C@H](C)NP(=O)(OC[C@@H]1C=C[C@H](n2cc(C)c(=O)[nH]c2=O)O1)Oc1ccccc1Br,A17,RT-Y181C,p24,0.042 µM
CC(C)OC(=O)[C@H](C)NP(=O)(OCC(F)(F)C(F)(F)C(F)(F)Cn1ccc(N)nc1=O)Oc1ccccc1,LAI,,RT activity,>100 µM
CCO[C@@H]1Cc2cc(C(F)(F)F)ccc2C1N1CCN(C2(C)CCN(C(=O)c3c(C)ncnc3C)CC2)C[C@@H]1C,Ru570,,p24,0.002 µM

An empty or dashed field is not shown. ECn: concentration that inhibits the pathogen or its effect by n%.